Compound potency records, mixed from different reports. Data source: NIAID ChemDB in PubChem.

Shared fields: whole-cell or culture tests; agent: Mycobacterium avium complex

Neighbouring rows are from separate reports. MIC50, MIC90 and the like: level of inhibition, or share of isolates inhibited.

O=C1c2cc(Cl)ccc2-n2c1nc1cc(F)ccc1c2=O ; read-out: MIC ; strain: 101 ; result: <0.2 µg/mL
CC(C)Nc1cc2c(cc1[N+](=O)[O-])c(=O)c(C(=O)O)cn2C(C)C ; read-out: MIC50 ; result: >200 µM
O=C1c2ccccc2-n2c1nc1ncccc1c2=O ; read-out: MIC ; strain: 19075 ; result: 25 µg/mL
Cc1c(F)c(N2CCNC(C)C2)cc2c1c(=O)c(C(=O)O)cn2C1CC1 ; read-out: MIC ; strain: clinical strain 3 ; result: 4 µg/mL
CC(C)(C)n1cc(C(=O)O)c(=O)c2cc([N+](=O)[O-])c(N3CCOCC3)cc21 ; read-out: MIC50 ; result: 13.5 µM
O=C1c2ccc(N3CCNCC3)cc2-n2c1nc1ccccc1c2=O ; read-out: MIC ; strain: 19075 ; result: >25 µg/mL
CO[C@H]1/C=C/O[C@@]2(C)Oc3c(C)c(O)c4c(=O)c(c5oc6cc(N7CCN(CC(C)C)CC7)cc(=O)c6nc5c4c3=C2O)NC(=O)/C(C)=C\C=C\[C@H](C)[C@H](O)[C@@H](C)[C@@H](O)[C@@H](C)[C@H](OC(C)=O)[C@@H]1C ; read-out: MIC ; strain: N-260 ; result: 0.05 µg/mL
Cc1ccc2c(c1)C(=O)c1nc3ccccc3c(=O)n1-2 ; read-out: MIC ; strain: 19075 ; result: 5 µg/mL
CC[C@H]1OC(=O)[C@H](C)[C@@H](O[C@H]2C[C@@](C)(OC)[C@@H](OC(C)=O)[C@H](C)O2)[C@H](C)[C@@H](O[C@@H]2O[C@H](C)C[C@H](N(C)C)[C@H]2OC(=O)NNCCCc2ccccc2)C(C)(O)C[C@@H](C)/C(=N\OCCCC2CCCCC2)[C@H](C)[C@@H](O)[C@]1(C)O ; read-out: MIC ; strain: 20092 (clarithromycin-resistant) ; result: 1.56 µg/mL
CC(=O)NC[C@H]1CN(c2ccc(N3CCN(Cc4ccc([N+](=O)[O-])s4)CC3)c(F)c2)C(=O)O1 ; read-out: MIC90 ; strain: 31 isolates ; result: 0.5 µg/mL
C[C@@H]1CN(c2c(F)c(N)c3c(=O)c(C(=O)O)cn(C4CC4)c3c2F)C[C@H](C)N1 ; read-out: MIC90 ; strain: 18 strains ; result: 12.5 µg/mL
Cc1cc(C)c2nc3n(c(=O)c2c1)-c1ccc(F)cc1C3=O ; read-out: MIC ; strain: 19075 ; result: 0.25 µg/mL
CCCCCCC(=O)O[C@H]1[C@H](C)OC(O[C@H]2[C@H](C)[C@@H](O[C@@H]3O[C@H](C)C[C@H](N(C)C)[C@H]3O)C(C)(O)C[C@@H](C)/C(=N\OCCCOc3ccccc3)[C@H](C)[C@@H](O)[C@](C)(O)[C@@H](CC)OC(=O)[C@@H]2C)C[C@@]1(C)OC ; read-out: MIC ; strain: 20096 (clarithromycin-resistant) ; result: 3.13 µg/mL
CO[C@H]1/C=C/O[C@@]2(C)Oc3c(C)c(O)c4c(O)c(c5c(c4c3C2=O)NC2(CCN(CC(C)C)CC2)N=5)=NC(=O)/C(C)=C\C=C\[C@H](C)[C@H](O)[C@@H](C)[C@@H](O)[C@@H](C)[C@H](OC(C)=O)[C@@H]1C ; read-out: MBC ; strain: 168-4 ; result: 16 µg/mL
O=C(O)c1cn(C2CCCCC2)c2cc(NC3CCCCC3)c(F)cc2c1=O ; read-out: MIC50 ; result: >200 µM
O=C1c2cc(F)ccc2-n2c1nc1ncccc1c2=O ; read-out: MIC ; strain: 19075 ; result: 5 µg/mL
NCC[C@H](O)C(=O)N[C@@H]1C[C@H](N)[C@@H](O[C@H]2O[C@H](CN)[C@@H](O)[C@H](O)[C@H]2O)[C@H](O)[C@H]1O[C@H]1O[C@H](CO)[C@@H](O)[C@H](N)[C@H]1O ; read-out: MIC ; strain: ATCC 35718 ; result: 16 µg/mL
O=C(O)c1cn(C2CCCC2)c2cc(NC3CCCC3)c([N+](=O)[O-])cc2c1=O ; read-out: MIC90 ; result: >200 µM
CC1CN(c2cc3c(cc2F)c(=O)c(C(=O)O)cn3-c2ccc(F)cc2F)CCN1 ; read-out: MIC ; strain: LV-2 ; result: 16 µg/mL
NC[C@H]1O[C@H](O[C@H]2[C@H](O)[C@@H](O[C@H]3O[C@H](CO)[C@@H](O)[C@H](N)[C@H]3O)[C@H](N)C[C@@H]2N)[C@H](O)[C@@H](O)[C@@H]1O ; read-out: MBC90 ; strain: 25 isolates ; result: >64 µg/mL
CC[C@H]1OC(=O)[C@H](C)[C@@H](O[C@H]2C[C@@](C)(OC)[C@@H](O)[C@H](C)O2)[C@H](C)[C@@H](O[C@@H]2O[C@H](C)C[C@H](N(C)C)[C@H]2O)[C@](C)(O)C[C@@H](C)CN(C)[C@H](C)[C@@H](O)[C@]1(C)O ; read-out: MIC ; strain: LV-2 ; result: 16 µg/mL
NC[C@H]1O[C@H](O[C@H]2[C@H](O)[C@@H](O[C@H]3O[C@H](CO)[C@@H](O)[C@H](N)[C@H]3O)[C@H](N)C[C@@H]2N)[C@H](N)C[C@@H]1O ; read-out: MBC90 ; strain: 25 isolates ; result: >64 µg/mL
CC[C@H]1OC(=O)[C@H](C)[C@@H](O[C@H]2C[C@@](C)(OC)[C@@H](OC(C)=O)[C@H](C)O2)[C@H](C)[C@@H](O[C@@H]2O[C@H](C)C[C@H](N(C)C)[C@H]2OC(=O)NNCCc2ccccc2)C(C)(O)C[C@@H](C)/C(=N\OCCCC2CCCCC2)[C@H](C)[C@@H](O)[C@]1(C)O ; read-out: MIC ; strain: 20096 (clarithromycin-resistant) ; result: 1.56 µg/mL
O=C(O)c1cn(CCF)c2cc(NCCF)c([N+](=O)[O-])cc2c1=O ; read-out: MIC50 ; result: 26 µM
CN[C@@H]1[C@@H](O)C(O[C@@H]2[C@@H](O)[C@H](OC3O[C@H](CN)[C@@H](O)[C@H](O)[C@H]3O)[C@@H](N)C[C@H]2NC(=O)[C@@H](O)CN)OC[C@]1(C)O ; read-out: MIC ; strain: T38 ; result: 25 µg/mL
CCCCCCCCCCCCO/N=C1\[C@H](C)CC(C)(O)[C@H](O[C@@H]2O[C@H](C)C[C@H](N(C)C)[C@H]2O)[C@@H](C)[C@H](OC2C[C@@](C)(OC)[C@@H](O)[C@H](C)O2)[C@@H](C)C(=O)O[C@H](CC)[C@@](C)(O)[C@H](O)[C@H]1C ; read-out: MIC ; strain: 20092 (clarithromycin-resistant) ; result: 25 µg/mL
O=C(O)c1cn(C2CCCCC2)c2cc(NC3CCCCC3)c([N+](=O)[O-])cc2c1=O ; read-out: MIC50 ; result: >200 µM

Repeating the final 4 entries:

{"structure": "O=C(O)c1cn(CCF)c2cc(NCCF)c([N+](=O)[O-])cc2c1=O", "read-out": "MIC50", "result": "26 µM"}
{"structure": "CN[C@@H]1[C@@H](O)C(O[C@@H]2[C@@H](O)[C@H](OC3O[C@H](CN)[C@@H](O)[C@H](O)[C@H]3O)[C@@H](N)C[C@H]2NC(=O)[C@@H](O)CN)OC[C@]1(C)O", "read-out": "MIC", "strain": "T38", "result": "25 µg/mL"}
{"structure": "CCCCCCCCCCCCO/N=C1\\[C@H](C)CC(C)(O)[C@H](O[C@@H]2O[C@H](C)C[C@H](N(C)C)[C@H]2O)[C@@H](C)[C@H](OC2C[C@@](C)(OC)[C@@H](O)[C@H](C)O2)[C@@H](C)C(=O)O[C@H](CC)[C@@](C)(O)[C@H](O)[C@H]1C", "read-out": "MIC", "strain": "20092 (clarithromycin-resistant)", "result": "25 µg/mL"}
{"structure": "O=C(O)c1cn(C2CCCCC2)c2cc(NC3CCCCC3)c([N+](=O)[O-])cc2c1=O", "read-out": "MIC50", "result": ">200 µM"}